{"source": "patent US20220089698A1", "about": "“ANTIBODIES THAT TARGET HIV GP120 AND METHODS OF USE” (published 2022)", "experiment_in_all_cases": "cell-based or functional assay", "key": {"[1]": {"target": "HIV-1 envelope glycoprotein (gp120) of virus 7141 (HIV-1)"}, "[2]": {"target": "HIV-1 envelope glycoprotein (gp120) of virus VS001 (HIV-1)"}, "[3]": {"target": "HIV-1 envelope glycoprotein (gp120) of virus 92US727 (HIV-1)"}}, "data": [{"binder": "1.1.132-1 (antibody, human IgG1, kappa) heavy: QVQLLQSGAAVTKPGASVRVSCEASGYNIRDYFIHWWRQAPGQGLQWVGWINPKTGQPNNPRQFQGRVSLTRHASWDFDTFSFYMDLKALRSDDTAVYFCARQRSDYWDFDVWGSGTQVTVSSASTKGPSVFPLAPSSKSTSGGTAALGCLVKDYFPEPVTVSWNSGALTSGVHTFPAVLQSSGLYSLSSVVTVPSSSLGTQTYICNVNHKPSNTKVDKKVEPKSCDKTHTCPPCPAPELLAGPDVFLFPPKPKDTLMISRTPEVTCVVVDVSHEDPEVKFNWYVDGVEVHNAKTKPREEQYNSTYRVVSVLTVLHQDWLNGKEYKCKVSNKALPLPEEKTISKAKGQPREPQVYTLPPSREEMTKNQVSLTCLVKGFYPSDIAVEWESNGQPENNYKTTPPVLDSDGSFFLYSKLTVDKSRWQQGNVFSCSVLHEALHSHYTQKSLSLSPGK light: not shown", "values": [{"measurement": "Neutralization IC50", "setting": "[1]", "value": 3.39, "unit": "µg/mL"}, {"measurement": "Neutralization IC50", "setting": "[2]", "value": 0.14, "unit": "µg/mL"}, {"measurement": "Neutralization IC50", "setting": "[3]", "value": 2.26, "unit": "µg/mL"}]}, {"binder": "1.1.134-1 (antibody, human IgG1, kappa) heavy: QVQLLQSGAAVTKPGASVRVSCEASGYNIRDYFIHWWRQAPGQGLQWVGWINPKTGQPNNPRQFQGRVSLTRHASWDFDTFSFYMDLKALRSDDTAVYFCARQRSDYWDFDVWGSGTQVTVSSASTKGPSVFPLAPSSKSTSGGTAALGCLVKDYFPEPVTVSWNSGALTSGVHTFPAVLQSSGLYSLSSVVTVPSSSLGTQTYICNVNHKPSNTKVDKKVEPKSCDKTHTCPPCPAPELLAGPDVFLFPPKPKDTLMISRTPEVTCVVVDVSHEDPEVKFNWYVDGVEVHNAKTKPREEQYNSTYRVVSVLTVLHQDWLNGKEYKCKVSNKALPLPEEKTISKAKGQPREPQVYTLPPSREEMTKNQVSLTCLVKGFYPSDIAVEWESNGQPENNYKTTPPVLDSDGSFFLYSKLTVDKSRWQQGNVFSCSVLHEALHSHYTQKSLSLSPGK light: not shown", "values": [{"measurement": "Neutralization IC50", "setting": "[1]", "value": 3.15, "unit": "µg/mL"}, {"measurement": "Neutralization IC50", "setting": "[2]", "value": 0.22, "unit": "µg/mL"}, {"measurement": "Neutralization IC50", "setting": "[3]", "value": 4.23, "unit": "µg/mL"}]}, {"binder": "1.1.135-1 (antibody, human IgG1, kappa) heavy: QVQLLQSGAAVTKPGASVRVSCEASGYNIRDYFIHWWRQAPGQGLQWVGWINPKTGQPNNPRQFQGRVSLTRHASWDFDTFSFYMDLKALRSDDTAVYFCARQRSDYWDFDVWGSGTQVTVSSASTKGPSVFPLAPSSKSTSGGTAALGCLVKDYFPEPVTVSWNSGALTSGVHTFPAVLQSSGLYSLSSVVTVPSSSLGTQTYICNVNHKPSNTKVDKKVEPKSCDKTHTCPPCPAPELLAGPDVFLFPPKPKDTLMISRTPEVTCVVVDVSHEDPEVKFNWYVDGVEVHNAKTKPREEQYNSTYRVVSVLTVLHQDWLNGKEYKCKVSNKALPLPEEKTISKAKGQPREPQVYTLPPSREEMTKNQVSLTCLVKGFYPSDIAVEWESNGQPENNYKTTPPVLDSDGSFFLYSKLTVDKSRWQQGNVFSCSVLHEALHSHYTQKSLSLSPGK light: not shown", "values": [{"measurement": "Neutralization IC50", "setting": "[1]", "value": 4, "unit": "µg/mL"}, {"measurement": "Neutralization IC50", "setting": "[2]", "value": 0.31, "unit": "µg/mL"}, {"measurement": "Neutralization IC50", "setting": "[3]", "value": 5.61, "unit": "µg/mL"}]}, {"binder": "1.1.133-1 (antibody, human IgG1, kappa) heavy: QVQLLQSGAAVTKPGASVRVSCEASGYNIRDYFIHWWRQAPGQGLQWVGWINPKTGQPNNPRQFQGRVSLTRHASWDFDTFSFYMDLKALRSDDTAVYFCARQRSDYWDFDVWGSGTQVTVSSASTKGPSVFPLAPSSKSTSGGTAALGCLVKDYFPEPVTVSWNSGALTSGVHTFPAVLQSSGLYSLSSVVTVPSSSLGTQTYICNVNHKPSNTKVDKKVEPKSCDKTHTCPPCPAPELLAGPDVFLFPPKPKDTLMISRTPEVTCVVVDVSHEDPEVKFNWYVDGVEVHNAKTKPREEQYNSTYRVVSVLTVLHQDWLNGKEYKCKVSNKALPLPEEKTISKAKGQPREPQVYTLPPSREEMTKNQVSLTCLVKGFYPSDIAVEWESNGQPENNYKTTPPVLDSDGSFFLYSKLTVDKSRWQQGNVFSCSVLHEALHSHYTQKSLSLSPGK light: not shown", "values": [{"measurement": "Neutralization IC50", "setting": "[1]", "value": 3.38, "unit": "µg/mL"}, {"measurement": "Neutralization IC50", "setting": "[2]", "value": 0.16, "unit": "µg/mL"}, {"measurement": "Neutralization IC50", "setting": "[3]", "value": 2.27, "unit": "µg/mL"}]}]}
